The assay addresses HA H4 Hubei, A/swine/Hubei/06/2009(H4N1) (Influenza A virus).

pKd: −log10 of the molar value.

For the substance “MEDI8852 UCA VH K58S-V65P-P75R IgG (antibody)”, the pKd was 7.14.
“MEDI8852 UCA VH K58S-P75R IgG (antibody)” had a pKd of 7.33.
The same measure for MEDI8852 UCA VH K58S Fab: 5.60.

The term pKd denotes −log10 of the Kd, conventionally taken in molar units. Read a high pKd as a low Kd.

The values above are taken from patent US20250243261A1.
